From ChEMBL document CHEMBL5038580 (J Med Chem, 2022)

Experiments:
[1] = system: Middle East respiratory syndrome-related coronavirus; experiment: Antiviral activity against MERS-CoV assessed as inhibition of S protein mediated cell-cell fusion in Huh-7 cells measured after 2 hrs by inverted fluorescence microscopy
[2] = system: MT2; experiment: Cytotoxicity against human MT2 cells incubated for 48 hrs by CCK-8 assay; conditions: mt2, 48 h
[3] = system: RD; experiment: Cytotoxicity against human RD cells incubated for 48 hrs by CCK-8 assay

Structure (SMILES)	IC50 [1]	CC50 [2]	CC50 [3]
CC[C@H](C)[C@H](NC(=O)[C@H](Cc1ccc(O)cc1)NC(=O)[C@H](CO)NC(=O)[C@H](CCC(=O)O)NC(=O)[C@H](CCC(=O)O)NC(=O)[C@H](CC(C)C)NC(=O)[C@H](CCCCN)NC(=O)[C@H](CCCCN)NC(=O)[C@@H](NC(=O)[C@@H](NC(=O)[C@H](CCC(=O)O)NC(=O)[C@H](CCC(=O)O)NC(=O)[C@H](CC(C)C)NC(=O)[C@H](CCCCN)NC(=O)[C@H](CCCCN)NC(=O)[C@H](CCSC)NC(=O)[C@H](CCC(=O)O)NC(=O)[C@H](Cc1ccc(O)cc1)NC(=O)[C@H](CCC(=O)O)NC(=O)[C@H](CC(C)C)NC(=O)[C@H](CC(=O)O)NC(=O)[C@H](CC(C)C)NC(=O)[C@H](CC(C)C)NC(=O)[C@@H](NC(=O)[C@@H](NC(=O)[C@H](CC(N)=O)NC(=O)[C@@H](NC(=O)[C@H](CCC(N)=O)NC(=O)[C@@H](NC(=O)[C@H](CC(C)C)NC(=O)[C@H](CO)NC(C)=O)[C@@H](C)O)[C@@H](C)CC)[C@@H](C)O)[C@@H](C)O)C(C)C)C(C)C)C(=O)N[C@@H](CC(=O)O)C(=O)N[C@@H](CC(C)C)C(=O)N[C@@H](CCCCN)C(=O)N[C@@H](CCC(=O)O)C(=O)N[C@@H](CC(C)C)C(N)=O	850 nM		
CC[C@H](C)[C@H](NC(C)=O)C(=O)N[C@@H](CCC(=O)O)C(=O)N[C@@H](CCC(=O)O)C(=O)N[C@H](C(=O)N[C@H](C(=O)N[C@@H](CCCCN)C(=O)N[C@@H](CCCCN)C(=O)N[C@H](C(=O)N[C@@H](Cc1c[nH]cn1)C(=O)N[C@@H](Cc1c[nH]cn1)C(=O)N[C@H](C(=O)N[C@@H](CCC(=O)O)C(=O)N[C@@H](CCCNC(=N)N)C(=O)N[C@@H](C)C(=O)N[C@H](C(=O)N[C@@H](CCC(=O)O)C(=O)N[C@@H](C)C(=O)N[C@@H](CCC(N)=O)C(=O)N[C@@H](CCC(N)=O)C(=O)N[C@@H](CCCCN)C(=O)N[C@@H](CC(C)C)C(=O)N[C@@H](CC(C)C)C(=O)N[C@@H](CCC(N)=O)C(=O)N[C@@H](CC(C)C)C(=O)N[C@H](C(=O)N[C@H](C(=O)N[C@@H](Cc1c[nH]c2ccccc12)C(=O)NCC(=O)N[C@H](C(=O)N[C@@H](CCCCN)C(=O)N[C@@H](CCC(N)=O)C(=O)N[C@@H](CC(C)C)C(=O)N[C@@H](CCC(N)=O)C(=O)N[C@@H](C)C(=O)N[C@@H](CCCNC(=N)N)C(=O)N[C@H](C(=O)N[C@@H](CC(C)C)C(N)=O)[C@@H](C)CC)[C@@H](C)CC)C(C)C)[C@@H](C)O)[C@@H](C)CC)[C@@H](C)CC)[C@@H](C)CC)C(C)C)[C@@H](C)CC	> 20000 nM	> 10 µM	> 40 µM
